The values below come from US20080199882A1, “METHOD FOR DETECTION OF BIOMARKERS FOR EXPOSURE TO STACHYBOTRYS” (published 2008).

Data set [1] in a line: Satratoxin G ELISA of whole blood after intratracheal instillation of S. chartarum spores. Background: In an ELISA, binding on a coated surface is turned into a signal by an enzyme label.
Data set [2] in a line: Amino acid-satratoxin G adducts in pronase digests of rat serum, MALDI-TOF MS. As to conditions: sera collected six hours after intra-tracheal instillation of spores, exhaustive proteolysis.

A value given as a limit tells only on which side of the number the result lay.

satratoxin G: the “time for level of free toxin in blood to decrease below the detection limit” value in data set [1] (7 d old rat pups, intra-tracheal 4.0×10^5 spores/gm body weight, ethanol extracts of whole blood, ELISA detection limit 0.1 ng/ml) was not above 15 min. In data set [1] (rat pups, equivalent satratoxin G dose 0.4 μgm/gm body wt, sacrificed immediately following spore instillation), the “satratoxin G recovered in the blood” value is on record as “about 0.13%”. In addition, the “satratoxin G amino acid adducts in serum” value in data set [2] was “cysteinyl, lysyl and histydyl satratoxin G adducts were detected”.
